{
  "source": "patent US20230357367A1",
  "key": {"[1]": {"biological_target": "T1, SARS-CoV-2 spike S2 peptide 1143-1162 (stem helix region), biotinylated (SARS-CoV-2)", "assay": "SPR, Fab over captured biotin-peptide, 25 C"}, "[2]": {"biological_target": "SARS-CoV-2 spike S2 peptide 1141-1155, biotinylated (SARS-CoV-2)", "assay": "DELFIA, IgG titrated on captured biotin-peptide", "parameters": "unit not given beside the values"}, "[3]": {"biological_target": "T1, SARS-CoV-2 spike S2 peptide 1143-1162 …", "assay": "DELFIA, IgG titrated on captured biotin-peptide", "parameters": "unit not given beside the values"}},
  "data": [
    {"binder": "Reference Antibody Fab (Fab, V domains shown) VH: EVQLVESGAEVKKPGESLKISCKGSGYTFTRYWIGWVRQMPGKGLEWMGIIYPGDSDTRYSPSFQGHVTISADKSISTAYLQWNSLKASDTAMYYCARLPQYCSNGVCQRWFDPWGQGTLVTVSS VL: EIVLTQSPSSVSASVGDRVTITCRASQGISSWLAWYQQKPGKAPKLLIYAASSLQSGVPSRFSGSGSGTDFTLTISSLQPEDFATYYCQQGNSFPYTFGQGTNLEIK", "values": [
      {"measurement": "Kd", "setting": "[1]", "result": 64.2, "unit": "nM"},
      {"measurement": "koff", "setting": "[1]", "result": 0.0306, "unit": "s⁻¹"},
      {"measurement": "kon", "setting": "[1]", "result": 477000, "unit": "M⁻¹ s⁻¹"}
    ]},
    {"binder": "Reference Antibody (antibody, V domains shown) VH: EVQLVESGAEVKKPGESLKISCKGSGYTFTRYWIGWVRQMPGKGLEWMGIIYPGDSDTRYSPSFQGHVTISADKSISTAYLQWNSLKASDTAMYYCARLPQYCSNGVCQRWFDPWGQGTLVTVSS VL: EIVLTQSPSSVSASVGDRVTITCRASQGISSWLAWYQQKPGKAPKLLIYAASSLQSGVPSRFSGSGSGTDFTLTISSLQPEDFATYYCQQGNSFPYTFGQGTNLEIK", "values": [
      {"measurement": "AUC", "setting": "[2]", "result": 2270},
      {"measurement": "AUC", "setting": "[3]", "result": "3.25e+06"}
    ]}
  ]
}
